Laboratory results as given in article PMC6950094, “Variants of Escherichia coli Subtilase Cytotoxin Subunits Show Differences in Complex Formation In Vitro” (Toxins, 2019).

B1: SubB1-His (His-tagged B-subunit of subtilase cytotoxin variant SubAB1) (natural protein)
chain: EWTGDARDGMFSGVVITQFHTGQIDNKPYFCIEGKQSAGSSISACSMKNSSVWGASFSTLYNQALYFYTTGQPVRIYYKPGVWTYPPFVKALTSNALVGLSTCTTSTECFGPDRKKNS

Experiments:
[1] = biological target: SubB2-2-His (His-tagged B-subunit of subtilase cytotoxin variant SubAB2-2) (Escherichia coli (STEC)); test: SEC
[2] = biological target: SubA1-His (His-tagged A-subunit of subtilase cytotoxin variant SubAB1) (Escherichia coli (STEC), UniProt Q6EZC2 22-347); test: ITC
SEC = biological target: the molecule itself; test: SEC

Molecule | stoichiometry N [1] | Kd [2] | dH [2] | stoichiometry N [2] | stoichiometry N (SEC)
SubB2-2-His (His-tagged B-subunit of subtilase cytotoxin variant SubAB2-2) (natural protein) | 5 |  |  |  | 
B1 |  | 3.9 µM | 1.6 kcal/mol | 4.9 | 5
